Compound potency records, mixed from different reports. Data source: NIAID ChemDB in PubChem.

All rows: tests in culture; species: Mycobacterium tuberculosis

A number after MIC or MFC names an inhibition level or a share of isolates. Neighbouring rows are from separate reports. Inhibition is in % at the dose shown (toxicity tests: loss of growth or viability). MIC bound: limit read from a one-dose screen. ECn is the concentration giving n% inhibition of infection, replication or growth. Blank or dashed fields: not listed here.

structure	mutations	strain	measure	method	dose	result
C(=N\Nc1ccccc1)/c1ccc2ccccc2n1		H37Rv	inhibition	BACTEC	6.25 µg/mL	3%
CC(C)=CCC1C(=O)C(CC=C(C)C)(CC=C(C)C)C(O)C(C(=O)C(C)C)C1O		Isolate O	MIC			40.6 µg/mL
COC(=O)C1=C(C(=O)OC)C2OC1C1OC21		H37Rv	MIC bound	BACTEC		>12.5 µg/mL
Cn1c(=O)cc(Oc2nc(Nc3ccc(C#N)cc3)nc(Oc3cc(=O)oc4ccccc34)n2)c2ccccc21			inhibition	agar	100 µg/mL	96%
CCCCS(=O)(=O)Nc1ccc2[nH]c(C(N)=O)c(C)c2c1	A119T DG167-resistant	DRM167 8x2	MIC90	resazurin		>100 µM
Cn1c(=O)cc(Oc2nc(Nc3ccc(C#N)cc3)nc(Nc3nc4ccc(Cl)cc4s3)n2)c2ccccc21			inhibition	agar	100 µg/mL	95%
O=C(Nc1ccc(CN2CCOCC2)cc1)c1ccc(Cl)cc1		103471	MIC			>16 µg/mL
CC[C@@H](CO)NCCN[C@@H](CC)CO	Ofloxacin-resistant	12119	MIC80	broth dilution		4.9 µM
COc1ccc2c(c1)C(=O)c1nc3ccccc3c(=O)n1-2		MDR 10038	MIC			1 µg/mL
COC(=O)C1C(O)C(C)C(OC(C)=O)C(C)/C=C\C=C(/C)C(=O)Nc2c(C)c(OC(C)=O)c3c(c2O)C(=O)C(C)=C2OCOC(=C23)/C(C)=C/C(C)(O)C(O)C(C)C1O		CS-R	MIC			0.8 µg/mL
O=C(Nc1ccccc1Cn1ccnc1)c1ccc(-c2ccccc2)cc1		103471	MIC			>16 µg/mL
Cc1ccccc1Nc1nnc(-c2ccc(N)cc2)s1		H37Rv	inhibition	BACTEC	6.25 µg/mL	7%
NNC(=O)c1ccncc1	Rifampicin-resistant	19000	MIC80	broth dilution		0.2 µM
COc1ccc(/C=C/c2nc3ccc(Br)cc3[nH]2)cc1OC		H37Rv (ATCC 27294)	MIC	resazurin		>7.25 µg/mL
Cc1[nH]c2ccccc2c(=O)c1-c1ccc(Oc2ccc(OC(F)(F)F)cc2)cc1		H37Rv	inhibition	fluorescence	5 µM	0%
O=C1c2ccccc2-n2c1nc1ccc(F)cc1c2=O		H37Rv	MIC			1.3 µg/mL
CCCCCCCCCCCCCCCCC(=O)NNC(=O)c1ccncc1		ATCC 35822 INHr	MIC100	resazurin		3.12 µg/mL
C=C(C)C1CC2=C(O1)C(=O)c1ccccc1C2=O		H37Rv	MIC bound	resazurin		<6.25 µg/mL
Cc1nc2c(C)cccn2c1C(=O)NNC(=S)Nc1ccccc1		H37Rv	inhibition		12.5 µg/mL	55%
FC(F)(F)c1cc(C(OB(c2ccccc2)c2ccccc2)C2CCCCN2)c2cccc(C(F)(F)F)c2n1		H37Ra	MIC	resazurin		50 µg/mL
O=C(c1ccc(Br)cc1)c1cnc2nc(-c3ccccc3)c(-c3ccccc3)nn12		H37Rv	MIC	BACTEC		12.5 µg/mL
Cc1c(C#N)[nH]c2ccc(NS(=O)(=O)CCCC(F)(F)F)cc12		H37Rv	MIC90	resazurin		0.78 µM
COC1=C2CC(C)CC(OC)C(O)C(C)/C=C(\C)C(OC(N)=O)C(OC)/C=C\C=C(/C)C(=O)NC(=C(C=NN3CCOCC3)C1=O)C2=O		H37Rv	MIC bound	BACTEC		>12.5 µg/mL
O=CN/N=C\c1ccnc2ccccc12		H37Rv	inhibition	BACTEC	6.25 µg/mL	0%
O=C(Nc1cccc(CN2CCOCC2)c1)c1ccc(Cl)cc1		103471	MIC			8 µg/mL
CC(=O)OCC1OC(OC2=C(c3ccccc3)C(=O)C(OC3OC(COC(C)=O)C(OC(C)=O)C(OC(C)=O)C3OC(C)=O)=C(c3ccccc3)C2=O)C(OC(C)=O)C(OC(C)=O)C1OC(C)=O		H37Rv	MIC bound	BACTEC		>12.5 µg/mL
O=[N+]([O-])c1ccc(-n2cnc([N+](=O)[O-])c2)cc1		H37Rv	MIC			>6.25 µg/mL
O=C(Nc1nnc(-c2ccncc2)s1)C(=O)C(Cl)(Cl)Cl		H37Rv	MIC	visual reading		>200 µM
O=C(/C=C/c1ccccc1)Nc1ccccc1Cn1ccnc1		103471	MIC			>16 µg/mL
O=C1c2cc(F)ccc2-n2c1nc1c(F)cccc1c2=O		MDR 10038	MIC			<0.4 µg/mL
C(=N/Nc1ccccc1)/c1cc(C2CCCCC2)nc2ccccc12		H37Rv	inhibition	BACTEC	6.25 µg/mL	0%
CC(=O)NC[C@H]1CN(c2ccc(-c3ccc(-c4nnnn4C)nc3)c(F)c2)C(=O)O1		67 clinical isolates	MIC50			0.0625 µg/mL
CN(C)c1ccc(/C=N/NC(=O)CCCC(=O)N/N=C/c2ccc(N(C)C)cc2Cl)c(Cl)c1		H37Rv	inhibition	BACTEC	12.5 µg/mL	43%
CN[C@@H]1[C@H](O[C@H]2[C@H](O[C@H]3[C@H](O)[C@@H](O)[C@H](N=C(N)N)[C@@H](O)[C@@H]3N=C(N)N)O[C@@H](C)[C@]2(O)C=O)O[C@@H](CO)[C@H](O)[C@H]1O	Isoniazid-resistant	35822	MIC80	broth dilution		0.3 µM
CO[C@H]1/C=C/O[C@@]2(C)Oc3c(C)c(O)c4c(O)c(c(/C=N/N5CCN(C)CC5)c(O)c4c3C2=O)NC(=O)/C(C)=C\C=C\[C@H](C)[C@H](O)[C@@H](C)[C@@H](O)[C@@H](C)[C@H](OC(C)=O)[C@@H]1C		Isolate N	MIC			>2 µg/mL
NC(=O)c1cnccn1		ATCC 25618	MIC			64 µg/mL
Cc1c(-c2ccc(Oc3ccc(F)cc3)nc2)[nH]c2ccccc2c1=O		H37Rv	inhibition	fluorescence	5 µM	0%
O=C(Nc1ccc(Cn2ccnc2)cc1)c1ccc(Cl)cc1		103471	MIC			>16 µg/mL
NNC(=O)c1nnsc1-c1csnn1		H37Rv	inhibition	BACTEC	12.5 µg/mL	11%
O=C(/C=C/c1ccccc1)Nc1ccccc1CN1CCOCC1		103471	MIC			>16 µg/mL
Cc1c(-c2ccc(N3CCCCC3)cc2)[nH]c2ccccc2c1=O		H37Rv	inhibition	fluorescence	5 µM	98.2%
Fc1ccc(N/N=C/c2ccc3ccccc3n2)cc1		H37Rv	inhibition	BACTEC	6.25 µg/mL	94%
CCCCS(=O)(=O)Nc1ccc2[nH]c(C(=O)NCc3cccc(C)c3)c(C)c2c1		H37Rv	MIC90	resazurin		>100 µM
Cc1nc([N+](=O)[O-])cn1-c1ccc(Br)cc1		H37Rv	inhibition		6.25 µg/mL	85%
CCCCNC(=S)NNC(=O)c1ccncc1		H37Rv	inhibition	resazurin	6.25 µg/mL	97%
COc1ccc2nc(Nc3nc(Nc4ccc(C#N)cc4)nc(Oc4cc(=O)n(C)c5ccccc45)n3)sc2c1			inhibition	agar	62.5 µg/mL	97%
S=C(Nc1ccccc1)Nc1ccc(-c2nnc(NCc3ccccc3)s2)cc1		H37Rv	inhibition	BACTEC	6.25 µg/mL	16%
COC(=O)C(=O)c1c(C2CC2)[nH]c2[nH]n(-c3ccccc3)c(=O)c2c1=O		H37Rv	MIC	BACTEC		≥12.5 µg/mL
NNC(=O)c1ccncc1		Isolate K	MIC			>0.2 µg/mL
Oc1cccc(/C=C/c2nc3ccc(Br)cc3[nH]2)c1		H37Rv (ATCC 27294)	MIC	resazurin		>7.25 µg/mL
Br.O=C(O)CNCCN1CC(=O)N(c2ccccc2)C1=S		H37Rv	MIC bound	BACTEC		>12.5 µg/mL
CCCCCS(=O)(=O)Nc1ccc2[nH]c(C(=O)O)c(C)c2c1		H37Rv	MIC90	resazurin		12.5 µM
O=[N+]([O-])c1ccc2nc(/C=C/c3ccc(Cl)cc3Cl)[nH]c2c1		H37Rv (ATCC 27294)	MIC	resazurin		>7.25 µg/mL
CCCCCCC/C=C\CCCCCCCC(=O)NN		1896-HF INHr	MIC100	resazurin		50 µg/mL
Cc1c(-c2ccc(Cc3ccccc3)cc2)[nH]c2ccccc2c1=O		H37Rv	inhibition	fluorescence	5 µM	9.5%
CCCCCCC/C=C\CCCCCCCC(=O)O		ATCC 27294 H37Rv	MIC100	resazurin		100 µg/mL
COc1cc(-c2nnc(Sc3nc(Nc4ccc(C#N)cc4)nc(Oc4cc(=O)n(C)c5ccccc45)n3)o2)cc(OC)c1OC			EC99	agar		12.5 µg/mL
O=Cc1coc2ccc(Br)cc2c1=O		My 331/88	MIC			125 µM
CC1=C(N2CCOCC2)C(N2CCOCC2)C(C)C1=O		H37Rv	inhibition	BACTEC	12.5 µg/mL	10%
O=Cc1coc2ccc(Cl)cc2c1=O		My 331/88	MIC			250 µM
Cc1c(-c2ccc(Oc3ccc(OC(F)(F)F)cc3)nc2)[nH]c2ccccc2c1=O		H37Rv	inhibition	fluorescence	5 µM	80.5%
O=C(/C=C/c1ccccc1)Nc1ccc(CN2CCOCC2)cc1		103471	MIC			8 µg/mL
CC(CN1c2ccccc2Sc2ccc(Cl)cc21)N(C)CCCl.Cl		H37Rv	inhibition	BACTEC	12.5 µg/mL	33%
Cc1ccc(NC(=S)NNC(=O)c2c(C)nc3c(C)cccn23)cc1		H37Rv	MIC			>12.5 µM
Nc1ccc(-c2nnc(NC3CCCCC3)s2)cc1		H37Rv	inhibition	BACTEC	6.25 µg/mL	41%
O=C(N=Nc1c(Cl)c(O)c2ccccc2c1O)C(F)(F)F		H37Rv	inhibition	BACTEC	12.5 µg/mL	100%
CCCCS(=O)(=O)Nc1ccc2[nH]c(C(=O)NC(C)CC)c(C)c2c1		H37Rv	MIC90	resazurin		3.1 µM
CO[C@H]1/C=C/O[C@@]2(C)Oc3c(C)c(O)c4c(=O)c(c5oc6cc(N7CCN(CC(C)C)CC7)cc(=O)c6nc5c4c3=C2O)NC(=O)/C(C)=C\C=C\[C@H](C)[C@H](O)[C@@H](C)[C@@H](O)[C@@H](C)[C@H](OC(C)=O)[C@@H]1C		Kurono	MIC			0.004 µg/mL
Cc1ccc(Nc2nnc(-c3ccc(N)cc3)s2)cc1		H37Rv	inhibition	BACTEC	6.25 µg/mL	22%
C(=N/Nc1ccccc1)/c1cc(C2C3CC4CC(C3)CC2C4)nc2ccccc12		H37Rv	inhibition	BACTEC	6.25 µg/mL	0%
O=C1c2cc(Br)ccc2-n2c1nc1ccccc1c2=O		MDR 10038	MIC			1 µg/mL
COc1ccc(/C=C2/CN(C)C/C(=C\c3ccc(OC)c(OC)c3OC)C2=O)c(OC)c1OC.Cl		H37Rv	inhibition	BACTEC	12.5 µg/mL	79%
CCOC(=O)c1c(-c2ccc(Cc3ccc(OC(F)(F)F)cc3)cc2)[nH]c2ccccc2c1=O		H37Rv	inhibition	fluorescence	5 µM	0%
CC(C)CC(NC(=O)C(Cc1cnc[nH]1)N(C(=O)OCc1ccccc1)C(=O)OCc1ccccc1)C(=O)NN		H37Rv	MIC bound	BACTEC		>12.5 µg/mL
S=C(Nc1ccccc1)Nc1ccc(-c2nnc(Nc3ccccc3)s2)cc1		H37Rv	inhibition	BACTEC	6.25 µg/mL	1%
CCCCS(=O)(=O)Nc1ccc2[nH]c(C(=O)NC3(c4ccccc4)CC3)c(C)c2c1		H37Rv	MIC90	resazurin		6.2 µM
Fc1cccc(N/N=C\c2cc(C3C4CC5CC(C4)CC3C5)nc3ccccc23)c1		H37Rv	inhibition	BACTEC	6.25 µg/mL	94%
Cc1cc(NC(=O)C(=O)Cc2nc3ccccc3s2)ccc1Cl		H37Rv	inhibition	BACTEC	12.5 µg/mL	0%
CC(Cl)CC(=O)C(=O)Nc1nnc(-c2ccncc2)s1		H37Rv	MIC	visual reading		>200 µM
Nc1nc2n(n1)C(=O)C(=O)N2		H37Rv	MIC bound	BACTEC		>12.5 µg/mL
Clc1nccc2[nH]c(CC3CCCCC3)c(CN3CCOCC3)c12		H37Rv	EC50	resazurin		>50 µg/mL
C=C1CC(O)C2C(=C)C(=O)OC2C2C(C)C(=O)CC12		H37Rv	MIC	BACTEC		≥12.5 µg/mL
O=C1c2ccc(Cl)cc2-n2c1nc1ccccc1c2=O		H37Rv	MIC			1 µg/mL
CCCNc1nnc(-c2ccc(N=N/C(C(C)=O)=C(/C)O)cc2)s1		H37Rv	inhibition	BACTEC	6.25 µg/mL	36%
Cc1ccc2occ(C=O)c(=O)c2c1		My 331/88	MIC			1000 µM
Cc1ccc2nc(Nc3nc(Nc4ccc(C#N)cc4)nc(Oc4cc(=O)n(C)c5ccccc45)n3)sc2c1			MIC	agar		250 µg/mL
Fc1ccccc1N/N=C/c1ccnc2ccccc12		H37Rv	inhibition	BACTEC	6.25 µg/mL	0%
Cc1oc2c(C)c3oc(=O)cc(C)c3cc2c1CN		H37Rv	MIC bound	resazurin		>6.25 µg/mL
Cn1c(=O)cc(Oc2nc(Nc3ccc(C#N)cc3)nc(Nc3cnccn3)n2)c2ccccc21			MIC	agar		250 µg/mL

The first 11 rows once more:

structure | mutations | strain | measure | method | dose | result
C(=N\Nc1ccccc1)/c1ccc2ccccc2n1 |  | H37Rv | inhibition | BACTEC | 6.25 µg/mL | 3%
CC(C)=CCC1C(=O)C(CC=C(C)C)(CC=C(C)C)C(O)C(C(=O)C(C)C)C1O |  | Isolate O | MIC |  |  | 40.6 µg/mL
COC(=O)C1=C(C(=O)OC)C2OC1C1OC21 |  | H37Rv | MIC bound | BACTEC |  | >12.5 µg/mL
Cn1c(=O)cc(Oc2nc(Nc3ccc(C#N)cc3)nc(Oc3cc(=O)oc4ccccc34)n2)c2ccccc21 |  |  | inhibition | agar | 100 µg/mL | 96%
CCCCS(=O)(=O)Nc1ccc2[nH]c(C(N)=O)c(C)c2c1 | A119T DG167-resistant | DRM167 8x2 | MIC90 | resazurin |  | >100 µM
Cn1c(=O)cc(Oc2nc(Nc3ccc(C#N)cc3)nc(Nc3nc4ccc(Cl)cc4s3)n2)c2ccccc21 |  |  | inhibition | agar | 100 µg/mL | 95%
O=C(Nc1ccc(CN2CCOCC2)cc1)c1ccc(Cl)cc1 |  | 103471 | MIC |  |  | >16 µg/mL
CC[C@@H](CO)NCCN[C@@H](CC)CO | Ofloxacin-resistant | 12119 | MIC80 | broth dilution |  | 4.9 µM
COc1ccc2c(c1)C(=O)c1nc3ccccc3c(=O)n1-2 |  | MDR 10038 | MIC |  |  | 1 µg/mL
COC(=O)C1C(O)C(C)C(OC(C)=O)C(C)/C=C\C=C(/C)C(=O)Nc2c(C)c(OC(C)=O)c3c(c2O)C(=O)C(C)=C2OCOC(=C23)/C(C)=C/C(C)(O)C(O)C(C)C1O |  | CS-R | MIC |  |  | 0.8 µg/mL
O=C(Nc1ccccc1Cn1ccnc1)c1ccc(-c2ccccc2)cc1 |  | 103471 | MIC |  |  | >16 µg/mL